Measured values from several laboratories, pooled; numbers as filed in NIAID ChemDB.

Shared fields: whole-cell or culture tests; organism: HIV-2; read-out: EC50

An empty or dashed field is not shown. ECn: concentration that inhibits the pathogen or its effect by n%. Neighbouring rows are from separate reports.

SMILES,cells,method,strain,result
C/C(=N\Nc1nc(-c2ccc(Cl)cc2)cs1)c1ccc2c(c1)OCO2,MT-4,MTT,ROD,>21.83 µM
O=C(O)c1ccccc1C(=O)NC12CC3CC(C1)CC(C(=O)O)(C3)C2,CEM,syncytia,ROD,>100 µg/mL
CC#CCN1c2ccccc2C(=O)N(Cc2ccccc2)S1(=O)=O,CEM + CEM-SS,p24,ROD,>10 µM
O=C1c2ccccc2C(=O)N1C1C2CC3CC(C2)CC1C3,CEM,syncytia,ROD,>4 µg/mL
Cc1nc(CCCCCCC(=O)c2ccccc2)n2nc(NCCCCCCN)ccc12,PBMC,RT activity,D194,>10 µM
O=C(Nc1sccc1S(=O)(=O)c1ccccc1)c1ccccc1,CEM + CEM/O,cytopathic effect / MTT,ROD,>40 µg/mL
Oc1ccccc1/C=N/Nc1nc(-c2ccc(Cl)cc2)cs1,MT-4,MTT,ROD,>102 µM
Nc1nc2c(ncn2COC(CO)CO)c(=O)[nH]1,CEM,,,>400 µg/mL
C[C@]12CCC3C(CC=C4C[C@@H](O)CC[C@@]43C)C1CCC2C(=O)/C=C/c1ccc(Br)cc1,MT-4,MTT,ROD,>13.3 µM
O=C1c2sc(-c3ccccc3)cc2NS(=O)(=O)N1COCCO,CEM,,,>400 µg/mL
C#CCOCN1C=C(C#N)C(N)=NS1(=O)=O,MT-4,cytopathic effect / MTT,,>400 µg/mL
Cc1cc(Br)cc(C)c1Oc1ncc(N)c(Nc2ccc(C#N)cc2)n1,MT-4,MTT,ROD,>31 µM
Nc1nc(Cl)cc(OC[C@H]2O[C@H](COCc3ccccc3)[C@@H](OCc3ccccc3)[C@H]2OCc2ccccc2)n1,CEM,syncytia,ROD,>250 µM
O=C1/C(=C\c2ccc(F)cc2)N(CCc2cccs2)C(=S)N1CCc1cccs1,MT-4,MTT,ROD,93.1 µg/mL
CC1(C)[C@@H](CCO)C[C@H]1n1cnc2c(=O)[nH]c(N)nc21,CEM,cytopathic effect,,>100 µg/mL
CC(=O)Nc1sc(Cl)cc1S(=O)(=O)c1ccccc1[N+](=O)[O-],CEM + CEM/O,cytopathic effect / MTT,ROD,>8 µg/mL
Cc1nc(CCCCCCC(=O)c2ccccc2)n2nc(NCCCCCCCCCCCCN)ccc12,PBMC,RT activity,D194,>10 µM
CC(C)C(=O)Oc1ccc(COP(=O)(OCc2ccc(OC(=O)C(C)C)cc2)OP(=O)([O-])OC[C@@H]2CC[C@H](n3ccc(=O)[nH]c3=O)O2)cc1,CEM/TK-,syncytia,ROD,>50 µM
CC1(C)[C@@H](CCO)C[C@H]1n1nnc2c(N)ncnc21,CEM,cytopathic effect,,>20 µg/mL
O=C1C=CN(COCc2ccccc2)S(=O)(=O)N1COCc1ccccc1,MT-4,cytopathic effect / MTT,,>400 µg/mL
CC(NS(=O)(=O)c1ccc(Cl)cc1)c1nnc(Nc2ccc(Br)cc2)s1,MT-4,MTT,ROD,>4.09 µM
Cc1cc2nc(-c3c(F)cccc3F)n(Cc3c(F)cccc3F)c2cc1C,MT-4,RT activity,ROD,>6.15 µM
O=C1c2ccccc2C(=O)N1CCCC12CC3CC(CC(C3)C1)C2,CEM,syncytia,ROD,>4 µg/mL
Fc1cccc(F)c1Cn1c(-c2c(F)cccc2F)nc2ccccc21,MT-4,RT activity,ROD,>33.63 µM
Nc1cc2c(=O)c(C(=O)O)cn(N)c2cc1N1CCN(c2nc3ccccc3s2)CC1,MT-4,MTT,ROD,>0.17 µM
Cc1ccc(C2CC(C3CCC4C5CC=C6CC(O)CC[C@]6(C)C5CC[C@]34C)=NN2C(N)=S)cc1,MT-2,MTT,ROD,>7.49 µM
O=c1ccn([C@H]2CC[C@@H](CO)O2)c(=O)[nH]1,CEM,syncytia,ROD,>250 µM
N#Cc1ccc(Nc2nc(Oc3c(Cl)cccc3Cl)ncc2N)cc1,MT-4,MTT,ROD,>33 µM
CC(=O)OCCOCCN1C(=O)c2cc(-c3ccccc3)sc2N(Cc2ccccc2)S1(=O)=O,CEM,,,>400 µg/mL
CC1(C)[C@@H](CCO)C[C@H]1n1cnc2c(=O)[nH]cnc21,CEM,cytopathic effect,,>100 µg/mL
O=C1c2ccccc2N(Cc2ccccc2)S(=O)(=O)N1Cc1ccc(Cl)cc1,MT-4,p24,ROD,>38 µM
CC(C)(C)[Si](C)(C)CCOCN1C=C(C#N)C(N)=NS1(=O)=O,MT-4,cytopathic effect / MTT,,>400 µg/mL
CC(=O)Nc1cnc(Oc2c(Cl)cccc2Cl)nc1Nc1ccc(C#N)cc1,MT-4,MTT,ROD,>193 µM
Nc1sccc1S(=O)(=O)c1ccc(F)cc1,CEM + CEM/O,cytopathic effect / MTT,ROD,>8 µg/mL
Cc1cn(C2OC(CO[Si](C)(C)C(C)(C)C)C3(OS(=O)(=O)C=C3N)C2O[Si](C)(C)C(C)(C)C)c(=O)n(CC2CO2)c1=O,MT-4,trypan blue,ROD,>50 µM
CC(C)C(NS(=O)(=O)c1ccc(Br)cc1)c1nnc(Nc2ccc(Br)cc2)s1,MT-4,MTT,ROD,>2.31 µM
Cc1nc(CCCCCCC(=O)c2ccccc2)n2nc(NCCCCCCCCN)ccc12,PBMC,RT activity,D194,>10 µM
CCCCCCCCCC(=O)Oc1ccc(COP(=O)(OCc2ccc(OC(=O)CCCCCCCCC)cc2)OP(=O)([O-])OC[C@@H]2C=C[C@H](n3ccc(=O)[nH]c3=O)O2)cc1,CEM,syncytia,ROD,20 µM
O=C1c2ccccc2[C@@]2(O)C3C4C[C@H]5CC(C[C@H]3C5)C4N12,CEM,syncytia,ROD,>20 µg/mL
CCCC[C@H](NP(=O)(OC[C@@H]1C=C[C@H](n2cc(C)c(=O)[nH]c2=O)O1)Oc1ccccc1)C(=O)OC,CEM,,,0.69 µM
O=C(Nc1sccc1S(=O)(=O)c1ccc(Cl)cc1)C(F)(F)F,CEM + CEM/O,cytopathic effect / MTT,ROD,>8 µg/mL
O=c1[nH]c(=O)n([C@H]2C=C[C@@H](CO)O2)cc1CO,PBMC,RT activity,D194,0.2 µM
O=C1c2ccccc2N(Cc2ccccc2)S(=O)(=O)N1Cc1ccccc1,CEM + CEM-SS,p24,ROD,>50 µM
COc1ccc(S(=O)(=O)NC(c2nnc(Nc3ccc(F)cc3)s2)C(C)C)cc1,MT-4,MTT,ROD,>9.34 µM
NC1=NS(=O)(=O)N(COCc2ccccc2)C=C1,MT-4,cytopathic effect / MTT,,>400 µg/mL
Cc1nc(CCCCCCC(=O)c2ccccc2)n2nc(NCCCCCCCCCCCCNCc3cn([C@H]4C=C[C@@H](CO)O4)c(=O)[nH]c3=O)ccc12,PBMC,RT activity,D194,0.16 µM
CC(C)=Nn1cc(C(=O)O)c(=O)c2cc(N)c(N3CCN(c4ccccn4)CC3)cc21,MT-4,MTT,ROD,>1.11 µM
Nc1nc(OC[C@H]2CC[C@@H](COCc3ccccc3)O2)c2[nH]cnc2n1,CEM,syncytia,ROD,>50 µM
COc1ccc(Nc2nnc(C(NS(=O)(=O)c3ccc(Br)cc3)C(C)C)s2)cc1,MT-4,MTT,ROD,>9.57 µM
Cc1cc(C)c(Oc2ncc(NC(=O)C(F)(F)F)c(Nc3ccc(C#N)cc3)n2)c(C)c1,MT-4,MTT,ROD,>242 µM
COc1ccc(S(=O)(=O)NC(c2nnc(Nc3ccc(Br)cc3)s2)C(C)C)cc1,MT-4,MTT,ROD,>9.39 µM
Cc1cn(C2OC(CO[Si](C)(C)C(C)(C)C)C3(OS(=O)(=O)C=C3N)C2O[Si](C)(C)C(C)(C)C)c(=O)n(CCCNC(=O)c2ccc(C(=O)c3ccccc3)cc2)c1=O,MT-4,trypan blue,ROD,>50 µM
CC(=O)Nn1cc(C(=O)O)c(=O)c2cc(N)c(N3CCN(c4ccccn4)CC3)cc21,MT-4,MTT,ROD,>295.9 µM
COC(=O)CNP(=O)(OC[C@@H]1C=C[C@H](n2cc(C)c(=O)[nH]c2=O)O1)Oc1ccccc1,CEM,,,6 µM
Cc1cn(C2OC(CO[Si](C)(C)C(C)(C)C)C3(OS(=O)(=O)C=C3N)C2O[Si](C)(C)C(C)(C)C)c(=O)n(/C=C/CO)c1=O,MT-4,trypan blue,ROD,>2 µM
CC1(C)[C@@H](CCO)C[C@H]1n1cnc2c(N)ncnc21,MT-4,cytopathic effect,,>250 µg/mL
COc1cc2nc(-c3c(F)cccc3Cl)n(Cc3c(F)cccc3Cl)c2cc1Cc1c(F)cccc1Cl,MT-4,RT activity,ROD,>18.75 µM
O=C1c2ccccc2C(=O)N1[C@@H]1CC2CC3CC(C2)C1C3,CEM,syncytia,ROD,>4 µg/mL
CCC[C@H](NP(=O)(OC[C@@H]1C=C[C@H](n2cc(C)c(=O)[nH]c2=O)O1)Oc1ccccc1)C(=O)OC,CEM + CEM TK-,,,0.4 µM
COc1cc(OC[C@H]2CC[C@@H](COCc3ccccc3)O2)nc(N)n1,CEM,syncytia,ROD,>10 µM
Cc1cccc2c1CP(=O)(OC[C@@H]1CC[C@H](n3ccc(=O)[nH]c3=O)O1)CC2,CEM,syncytia,ROD,>50 µM
Cc1cn([C@H]2C=C[C@@H](CO)O2)c(=O)[nH]c1=O,CEM + CEM TK-,syncytia,ROD,25 µM
CC(=O)Nc1sc([N+](=O)[O-])cc1S(=O)(=O)c1ccc(Cl)cc1,CEM + CEM/O,cytopathic effect / MTT,ROD,>0.32 µg/mL
C/C(=N\Nc1nc(-c2ccc(C#N)cc2)cs1)c1ccc2c(c1)OCO2,MT-4,MTT,ROD,>68.28 µM
Cc1nc(CCCCCCC(=O)c2ccccc2)n2nc(NCCCCCCCCNCc3cn([C@H]4C=C[C@@H](CO)O4)c(=O)[nH]c3=O)ccc12,PBMC,RT activity,D194,0.22 µM
O=C(Nc1sccc1S(=O)(=O)c1ccccc1)c1cccnc1,CEM + CEM/O,cytopathic effect / MTT,ROD,>1.6 µg/mL
O=C1c2ccccc2N(CC2CCCCC2)S(=O)(=O)N1Cc1ccccc1,MT-4,p24,ROD,>125 µM
Nc1cc2c(=O)c(C(=O)O)cn(N)c2cc1N1CCN(c2cccc(C(F)(F)F)c2)CC1,MT-4,MTT,ROD,>4.49 µM
C/C(=N\Nc1nc(-c2ccc(C#N)cc2)cs1)c1ccc(-n2ccnc2)cc1,MT-4,MTT,ROD,>73.95 µM
c1ccc(COC[C@@H]2CC[C@H](COc3ncnc4nc[nH]c34)O2)cc1,CEM,syncytia,ROD,>2 µM
Nn1cc(C(=O)O)c(=O)c2ccc(N3CCN(c4nc5ccccc5s4)CC3)cc21,MT-4,MTT,ROD,2.84 µM
O=C1c2ccccc2N(Cc2ccc(Cl)c(Cl)c2)S(=O)(=O)N1Cc1ccccc1,MT-4,p24,ROD,>125 µM
CCCCCCCCCCCC(=O)Oc1ccc(COP(=O)(OCc2ccc(OC(=O)CCCCCCCCCCC)cc2)OP(=O)([O-])OC[C@@H]2C=C[C@H](n3ccc(=O)[nH]c3=O)O2)cc1,CEM,syncytia,ROD,>50 µM
Nc1nccc(OC[C@@H]2O[C@H](CO)[C@@H](O)[C@H]2O)n1,CEM,syncytia,ROD,>100 µM
CCC(C)C(NC(=O)c1ccccc1SSc1ccccc1C(=O)NC(C(=O)O)C(C)CC)C(=O)O,CEM + CEM-SS,cytopathic effect / XTT,ROD,2.6 µM
Nc1nc(N)nc(OC[C@H]2CC[C@@H](COCc3ccccc3)O2)n1,CEM,syncytia,ROD,>250 µM
COC(=O)CC(=O)Nc1sccc1S(=O)(=O)c1ccc(C)cc1,CEM + CEM/O,cytopathic effect / MTT,ROD,>8 µg/mL
COc1cc(C)cc2c(-c3c(O)cc(O)c4c3C[C@@H](C)N[C@@H]4C)cc(-c3cc(-c4c(O)cc(O)c5c4C[C@@H](C)N[C@@H]5C)c4cc(C)cc(OC)c4c3O)c(O)c12,CEM + CEM-SS,cytopathic effect / XTT,CBL-20,2 µM
C[C@]12CCC3C(CC=C4C[C@@H](O)CC[C@@]43C)C1CCC2C(=O)/C=C/c1ccsc1,MT-4,MTT,ROD,60.5 µM
Nc1ncnc2c1ncn2[C@H]1C[C@@H](O)[C@H](O)[C@@H]1O,CEM,,,>4 µM
O=C1/C(=C\c2ccc(O)cc2)N(CCc2cccs2)C(=S)N1CCc1cccs1,MT-4,MTT,ROD,>13.25 µg/mL
CCC(CC)(NP(=O)(OC[C@@H]1C=C[C@H](n2cc(C)c(=O)[nH]c2=O)O1)Oc1ccccc1)C(=O)OC,CEM + CEM TK-,,,50 µM
C/C=C/CSc1cc(NC(=S)c2ccsc2C)ccc1Cl,CEM + CEM-SS,p24,ROD,>2 µM
CC(=O)N1N=C(C2CCC3C4CC=C5C[C@@H](O)CC[C@]5(C)C4CC[C@]23C)CC1c1ccc(Br)cc1,MT-4,MTT,ROD,>0.29 µM

The last 9 rows once more:

| SMILES | cells | method | strain | result |
|---|---|---|---|---|
| Nc1nc(N)nc(OC[C@H]2CC[C@@H](COCc3ccccc3)O2)n1 | CEM | syncytia | ROD | >250 µM |
| COC(=O)CC(=O)Nc1sccc1S(=O)(=O)c1ccc(C)cc1 | CEM + CEM/O | cytopathic effect / MTT | ROD | >8 µg/mL |
| COc1cc(C)cc2c(-c3c(O)cc(O)c4c3C[C@@H](C)N[C@@H]4C)cc(-c3cc(-c4c(O)cc(O)c5c4C[C@@H](C)N[C@@H]5C)c4cc(C)cc(OC)c4c3O)c(O)c12 | CEM + CEM-SS | cytopathic effect / XTT | CBL-20 | 2 µM |
| C[C@]12CCC3C(CC=C4C[C@@H](O)CC[C@@]43C)C1CCC2C(=O)/C=C/c1ccsc1 | MT-4 | MTT | ROD | 60.5 µM |
| Nc1ncnc2c1ncn2[C@H]1C[C@@H](O)[C@H](O)[C@@H]1O | CEM |  |  | >4 µM |
| O=C1/C(=C\c2ccc(O)cc2)N(CCc2cccs2)C(=S)N1CCc1cccs1 | MT-4 | MTT | ROD | >13.25 µg/mL |
| CCC(CC)(NP(=O)(OC[C@@H]1C=C[C@H](n2cc(C)c(=O)[nH]c2=O)O1)Oc1ccccc1)C(=O)OC | CEM + CEM TK- |  |  | 50 µM |
| C/C=C/CSc1cc(NC(=S)c2ccsc2C)ccc1Cl | CEM + CEM-SS | p24 | ROD | >2 µM |
| CC(=O)N1N=C(C2CCC3C4CC=C5C[C@@H](O)CC[C@]5(C)C4CC[C@]23C)CC1c1ccc(Br)cc1 | MT-4 | MTT | ROD | >0.29 µM |